This passage reports Activity and MIC results from ChEMBL document CHEMBL3621085, “Tetrazole regioisomers in the development of nitro group-containing antitubercular agents” (Medchemcomm, 2015).

Experiment [1] has as its system Klebsiella pneumoniae. Put plainly: Antibacterial activity against ESBL positive Klebsiella pneumoniae J 14368/08 after 24 to 48 hrs by broth micro dilution method. The format is functional, organism-based.
In experiment [2] the test system is Mycobacterium avium. Put plainly: Antimycobacterial activity against Mycobacterium avium My 330/88 after 14 days by micromethod. It counts as functional.
The test system of experiment [3] is Mycobacterium kansasii. Put plainly: Antimycobacterial activity against Mycobacterium kansasii 6509/96 after 14 days by micromethod. The format is functional.
Experiment [4] has as its system Mycobacterium kansasii. Put plainly: Antimycobacterial activity against Mycobacterium kansasii My 235/80 after 14 days by micromethod. The format is functional.
Experiment [5] has as its system Staphylococcus aureus. Put plainly: Antibacterial activity against methicillin-resistant Staphylococcus aureus H 5996/08 after 24 to 48 hrs by broth micro dilution method. It counts as functional, organism-based.
The subject of experiment [6] is Klebsiella pneumoniae. Put plainly: Antibacterial activity against Klebsiella pneumoniae J 14368/08 after 24 to 48 hrs by broth micro dilution method. It counts as functional, organism-based.
A further experiment has as its system Trichosporon asahii. Put plainly: Antifungal activity against Trichosporon asahii 1188 after 24 to 48 hrs by broth micro dilution method. It counts as functional, organism-based.
Another experiment concerns Nakaseomyces glabratus. Put plainly: Antifungal activity against Candida glabrata 20/I after 24 to 48 hrs by broth micro dilution method. It counts as functional, organism-based.
Experiment [7] relates to Trichophyton mentagrophytes. Put plainly: Antifungal activity against Trichophyton mentagrophytes 445 after 72 to 120 hrs by broth micro dilution method. It counts as functional, organism-based.
The subject of a further experiment is Pseudomonas aeruginosa. Put plainly: Antibacterial activity against Pseudomonas aeruginosa ATCC 9027 after 24 to 48 hrs by broth micro dilution method. The format is functional, organism-based.
The subject of another experiment is Aspergillus fumigatus. Put plainly: Antifungal activity against Aspergillus fumigatus 2318 after 24 to 48 hrs by broth micro dilution method. The format is functional, organism-based.
The test system of experiment [8] is Klebsiella pneumoniae. Put plainly: Antibacterial activity against Klebsiella pneumoniae D 11750/08 after 24 to 48 hrs by broth micro dilution method. It counts as functional, organism-based.
Experiment [9] has as its system Mycobacterium avium. Put plainly: Antimycobacterial activity against Mycobacterium avium My 330/88 after 21 days by micromethod. It counts as functional.
For experiment [10], the system named is Mycobacterium tuberculosis. Put plainly: Antimycobacterial activity against Mycobacterium tuberculosis My 331/88 after 14 days by micromethod. It counts as functional.
Experiment [11] deals with Staphylococcus aureus. Put plainly: Antibacterial activity against Staphylococcus aureus ATCC 6538 after 24 to 48 hrs by broth micro dilution method. It counts as functional, organism-based.
Experiment [12] has as its system Mycobacterium kansasii. Put plainly: Antimycobacterial activity against Mycobacterium kansasii My 235/80 after 7 days by micromethod. It counts as functional.
The test system of the next experiment is Candida tropicalis. Put plainly: Antifungal activity against Candida tropicalis 156 after 24 to 48 hrs by broth micro dilution method. The format is functional, organism-based.
The subject of experiment [13] is Mycobacterium tuberculosis. Put plainly: Antimycobacterial activity against Mycobacterium tuberculosis My 331/88 after 21 days by micromethod. The format is functional.
For a further experiment, the system named is Escherichia coli. Put plainly: Antibacterial activity against Escherichia coli ATCC 8739 after 24 to 48 hrs by broth micro dilution method. The format is functional, organism-based.
The test system of experiment [14] is Mycobacterium kansasii. Put plainly: Antimycobacterial activity against Mycobacterium kansasii 6509/96 after 7 days by micromethod. It counts as functional.
Experiment [15] has as its system Mycobacterium kansasii. Put plainly: Antimycobacterial activity against Mycobacterium kansasii 6509/96 after 21 days by micromethod. It counts as functional.
The next experiment has as its system Pichia kudriavzevii. Put plainly: Antifungal activity against Candida krusei E28 after 24 to 48 hrs by broth micro dilution method. The format is functional, organism-based.
In a further experiment the test system is Lichtheimia corymbifera. Put plainly: Antifungal activity against Absidia corymbifera 272 after 24 to 48 hrs by broth micro dilution method. It counts as functional, organism-based.
Experiment [16] deals with Mycobacterium kansasii. Put plainly: Antimycobacterial activity against Mycobacterium kansasii My 235/80 after 21 days by micromethod. It counts as functional.
A further experiment deals with Candida albicans. Put plainly: Antifungal activity against Candida albicans ATCC 44859 after 24 to 48 hrs by broth micro dilution method. It counts as functional, organism-based.
For the next experiment, the system named is Enterococcus faecalis. Put plainly: Antibacterial activity against Enterococcus faecalis J 14365/08 after 24 to 48 hrs by broth micro dilution method. It counts as functional, organism-based.
Experiment [17] deals with Staphylococcus epidermidis. Put plainly: Antibacterial activity against Staphylococcus epidermidis H 6966/08 after 24 to 48 hrs by broth micro dilution method. The format is functional, organism-based.

Converted amounts (≈) assume the structure as drawn. The source made the active and inactive calls. The calls are words filed in the database; no cut-off is given here.

By MIC is commonly meant the lowest concentration that inhibits growth of the organism. Higher therefore signals a need for much substance. As to `O=[N+]([O-])c1cc(CSc2nnn(Cc3cc([N+](=O)[O-])cc([N+](=O)[O-])c3)n2)cc([N+](=O)[O-])c1`, the result (with Klebsiella pneumoniae [1]; with Staphylococcus aureus [5]; with Klebsiella pneumoniae [6]; in the experiment with Trichosporon asahii; in the experiment with Nakaseomyces glabratus; in experiment [7]) was inactive. The outcome with Pseudomonas aeruginosa, in the experiment with Aspergillus fumigatus, with Klebsiella pneumoniae [8], with Staphylococcus aureus [11], in the experiment with Candida tropicalis and in the experiment on Escherichia coli was inactive. In addition, the outcome (in the experiment on Pichia kudriavzevii; in the experiment on Lichtheimia corymbifera; in the experiment with Candida albicans; in the experiment on Enterococcus faecalis; in experiment [17]) was inactive. In addition, the MIC against Mycobacterium avium [2] was found to be 250 µM (≈ 116 µg/mL); in the experiment with Mycobacterium kansasii [3] it was 4 µM (≈ 1.85 µg/mL); with Mycobacterium kansasii [4], 2 µM (≈ 0.925 µg/mL); against Mycobacterium avium [9] it was 250 µM (≈ 116 µg/mL); in experiment [10] it was 1 µM (≈ 0.462 µg/mL); against Mycobacterium kansasii [12], 1 µM (≈ 0.462 µg/mL). Moreover, the MIC in experiment [13] was found to be 2 µM (≈ 0.925 µg/mL); in the experiment with Mycobacterium kansasii [14], 2 µM (≈ 0.925 µg/mL); with Mycobacterium kansasii [15], 8 µM (≈ 3.7 µg/mL); with Mycobacterium kansasii [16] it was 2 µM (≈ 0.925 µg/mL).
`O=[N+]([O-])c1ccc(Cn2nnnc2SCc2ccc([N+](=O)[O-])cc2[N+](=O)[O-])cc1`: the MIC in the experiment with Mycobacterium avium [2] was determined as 62 µM (≈ 25.9 µg/mL); in the experiment with Mycobacterium kansasii [3] it was 62 µM (≈ 25.9 µg/mL); against Mycobacterium kansasii [4], 62 µM (≈ 25.9 µg/mL); in the experiment on Mycobacterium avium [9], 62 µM (≈ 25.9 µg/mL); in [10], 4 µM (≈ 1.67 µg/mL); against Mycobacterium kansasii [12] it was 32 µM (≈ 13.4 µg/mL). Moreover, the MIC in experiment [13] worked out at 4 µM (≈ 1.67 µg/mL); against Mycobacterium kansasii [14], 32 µM (≈ 13.4 µg/mL); with Mycobacterium kansasii [15], 62 µM (≈ 25.9 µg/mL); against Mycobacterium kansasii [16], 62 µM (≈ 25.9 µg/mL).
On to `O=[N+]([O-])c1ccc(C[Se]c2nnnn2Cc2ccc([N+](=O)[O-])cc2[N+](=O)[O-])cc1`, for which the MIC in the experiment with Mycobacterium avium [2] was found to be 16 µM (≈ 7.43 µg/mL); with Mycobacterium kansasii [3], 62 µM (≈ 28.8 µg/mL); in the experiment with Mycobacterium kansasii [4], 62 µM (≈ 28.8 µg/mL); in the experiment with Mycobacterium avium [9] it was 32 µM (≈ 14.9 µg/mL); in [10], 2 µM (≈ 0.929 µg/mL); in the experiment with Mycobacterium kansasii [12] it was 32 µM (≈ 14.9 µg/mL). Also, the MIC stood at 4 µM (≈ 1.86 µg/mL) in experiment [13], 32 µM (≈ 14.9 µg/mL) with Mycobacterium kansasii [14], 62 µM (≈ 28.8 µg/mL) in the experiment with Mycobacterium kansasii [15] and 62 µM (≈ 28.8 µg/mL) against Mycobacterium kansasii [16].
For `O=[N+]([O-])c1cc(C[Se]c2nnnn2Cc2cc([N+](=O)[O-])cc([N+](=O)[O-])c2)cc([N+](=O)[O-])c1`, the MIC against Mycobacterium avium [2] is 125 µM (≈ 63.7 µg/mL); in the experiment with Mycobacterium kansasii [3], 62 µM (≈ 31.6 µg/mL); in the experiment on Mycobacterium kansasii [4], 62 µM (≈ 31.6 µg/mL); in the experiment with Mycobacterium avium [9], 125 µM (≈ 63.7 µg/mL); in experiment [10], 4 µM (≈ 2.04 µg/mL); against Mycobacterium kansasii [12], 16 µM (≈ 8.15 µg/mL). Moreover, the MIC is 8 µM (≈ 4.07 µg/mL) in experiment [13], 16 µM (≈ 8.15 µg/mL) against Mycobacterium kansasii [14], 62 µM (≈ 31.6 µg/mL) in the experiment with Mycobacterium kansasii [15] and 62 µM (≈ 31.6 µg/mL) in the experiment with Mycobacterium kansasii [16].
With `O=[N+]([O-])c1cc(C[Se]c2nnn(Cc3ccc([N+](=O)[O-])cc3[N+](=O)[O-])n2)cc([N+](=O)[O-])c1`, the MIC in the experiment on Mycobacterium avium [2] turned out to be 125 µM (≈ 63.7 µg/mL); against Mycobacterium kansasii [3], 8 µM (≈ 4.07 µg/mL); with Mycobacterium kansasii [4] it was 8 µM (≈ 4.07 µg/mL); with Mycobacterium avium [9], 125 µM (≈ 63.7 µg/mL); in [10], 2 µM (≈ 1.02 µg/mL); in the experiment on Mycobacterium kansasii [12], 4 µM (≈ 2.04 µg/mL). Also, the MIC in experiment [13] amounted to 2 µM (≈ 1.02 µg/mL); with Mycobacterium kansasii [14] it was 2 µM (≈ 1.02 µg/mL); with Mycobacterium kansasii [15] it was 16 µM (≈ 8.15 µg/mL); with Mycobacterium kansasii [16] it was 16 µM (≈ 8.15 µg/mL).
